{"source": "ChEMBL document CHEMBL3045109", "about": "“Inhibitory effect of bionic fungicide 2-allylphenol on Botrytis cinerea (Pers. ex Fr.) in vitro” (Pest Manag Sci, 2009)", "key": {"[1]": {"test_system": "Botrytis cinerea", "test": "Inhibition of respiratory activity in Botryotinia fuckeliana mycelium assessed as decrease in rate of oxygen consumption at 1 mM by Clark-type oxygen electrode recording analysis in presence of succinate and 2 mM mitochondrial alternative oxidase inhibitor, SHAM (reference value: 0%)"}, "[2]": {"test_system": "Botrytis cinerea", "test": "Inhibition of respiratory activity in Botryotinia fuckeliana mycelium assessed as decrease in rate of oxygen consumption at 1 mM by Clark-type oxygen electrode recording analysis in presence of glucose (reference value: 0%)"}, "[3]": {"test_system": "Botrytis cinerea", "test": "Inhibition of respiratory activity in Botryotinia fuckeliana mycelium assessed as decrease in rate of oxygen consumption at 1 mM by Clark-type oxygen electrode recording analysis in presence of succinate (reference value: 0%)"}, "[4]": {"test_system": "Botrytis cinerea", "test": "Inhibition of respiratory activity in Botryotinia fuckeliana mycelium assessed as decrease in rate of oxygen consumption at 1 mM by Clark-type oxygen electrode recording analysis in presence of glucose and 2 mM mitochondrial alternative oxidase inhibitor, SHAM (reference value: 0%)"}}}
{"smiles": "[C-]#N.[K+]", "values": [{"measurement": "inhibition", "setting": "[1]", "value": 100, "unit": "%"}, {"measurement": "inhibition", "setting": "[2]", "value": 35, "unit": "%"}, {"measurement": "inhibition", "setting": "[3]", "value": 46, "unit": "%"}, {"measurement": "inhibition", "setting": "[4]", "value": 100, "unit": "%"}]}
